Compound potency records, mixed from different reports. Data source: NIAID ChemDB in PubChem.

All rows: host cell toxicity; cell line: MT-4; read by: MTT; measure: CC50

Neighbouring rows are from separate reports. CCn: concentration that lowers growth or viability of the cells by n%.

compound,result
Cc1cc(/C=C/C#N)cc(C)c1Oc1ccnc(S(=O)(=O)CC(=O)NCCc2ccc(Br)cc2)n1,39.23 µM
C/C(=N\Nc1nc(-c2ccc([N+](=O)[O-])cc2)cs1)c1ccc(-c2ccc(Br)cc2)cc1,66.15 µM
Cc1ccc(S(=O)(=O)Nc2nnc(C(C)NS(=O)(=O)c3ccc(Cl)cc3)s2)cc1,60.53 µM
CCc1c(Cc2cccc(Cc3nc(N4CCCCC4)[nH]c(=O)c3CC)c2)nc(N2CCCCC2)[nH]c1=O,75 µM
Clc1ccc(-c2csc(N/N=C/c3ccco3)n2)cc1,27.9 µM
Cc1cn(CCCCO[C@@H]2O[C@H](CO)[C@@H](N=[N+]=[N-])[C@H]2O)c(=O)[nH]c1=O,>190 µg/mL
CCOCn1c(Cc2cccc(Cc3[nH]c(=O)[nH]c(=O)c3CC)c2)c(CC)c(=O)[nH]c1=O,>100 µM
Cc1ccc(S(=O)(=O)NC(CC(C)C)c2nnc(N(S(=O)(=O)c3ccc(Cl)cc3)S(=O)(=O)c3ccc(Cl)cc3)s2)cc1,4.09 µM
Cc1ccc(NC(=O)COc2nsnc2-c2cccc3ccccc23)c(Br)c1,14 µM
Brc1ccc(-c2csc(N/N=C/c3ccncc3)n2)cc1,125 µM
Cc1cc(C#N)cc(C)c1Oc1ccnc(S(=O)(=O)CC(=O)Nc2ccc(C#N)cc2)n1,>6.01 µM
OCCOCn1c(-c2ccccc2)c(Br)c(Br)c1-c1ccccc1,51 µM
COc1cc([N+](=O)[O-])ccc1NC(=O)C1=C(C)NC(=O)C2C(N)=NN=C12,81.1 µg/mL
Nc1cc2c(=O)c(C(=O)O)cn(C3CC3)c2cc1N1CCN(c2nc3ccccc3s2)CC1,0.076 µg/mL
Cc1cc(C#N)cc(C)c1Oc1nc(NC2CCN(S(=O)(=O)N3CCOCC3)CC2)nc2ccsc12,>236.4 µM
Cn1cc(C(=O)O)c(=O)c2cc(N)c(N3CCN(c4nc5ccccc5s4)CC3)nc21,0.34 µM
Cc1cc(C#N)cc(C)c1Oc1nc(Nc2ccc(C#N)cc2)nc(N)c1Br,>4.6 µM
CC1(C)C=Cc2c(c3c(c4ccc(=O)oc24)OC(C)(C)C=C3)O1,41 µM
CCOC(=O)c1c(Cl)c(-c2ccccc2)n(COCCO)c1C,111 µM
CC1=[N+](C)N(c2ccccc2)C(=O)C1Nc1nc(Nc2ccc(C#N)cc2)nc(Oc2cc(=O)n(C)c3ccccc23)n1,>125 µg/mL
Cc1cc(C#N)cc(C)c1Oc1nc(NC2CCN(S(=O)(=O)c3ccc(C#N)cc3)CC2)nc2ccsc12,20.98 µM
Cc1ccnc2c1NC(=O)c1cccnc1N2C1CC1,>4 µM
O=[N+]([O-])c1ccc(/C=N/Nc2nc(-c3ccc([N+](=O)[O-])cc3)cs2)cc1,73.58 µM
Cc1ccc2nc(Nc3nc(Nc4ccc(C#N)cc4)nc(Oc4cc(=O)n(C)c5ccccc45)n3)sc2c1,3.88 µg/mL
CC(=O)N1Cc2ccccc2-c2c(C)c(-c3ccc(C)cc3)c([C@H](OC(C)(C)C)C(=O)O)c(C)c21,21 µM
CCOC(=O)c1c(Br)c(-c2ccccc2)n(COCCO)c1-c1ccccc1,64 µM
COC(=O)[C@H](C)NC(O)(Oc1ccccc1)Oc1nc(N(C)C)nc(C(C)c2c(F)cccc2F)c1C,25 µM
C=CCN1C(C)C(=S)Nc2ccc(Cl)cc2S1(=O)=O,16 µM
C[C@@H]1CN2C[C@H]3CCC4=C5C(=CC[C@@]56C(=O)C1C[C@@H]2[C@@]36C)CC[C@@]41C[C@H]2CC[C@@H]3CN4C[C@@H](C)[C@H]5C[C@@H]4[C@]3(C)[C@]3(CCC1=C23)C5=O,28.1 µM
C=CS(=O)(=O)N1CCCC(NS(=O)(=O)c2c(C(N)=O)[nH]c3ccc(Br)cc23)C1,40.7 µM
CC(=O)OCCOCn1c(-c2ccccc2)cc([N+](=O)[O-])c1-c1ccccc1,37 µM
O=C(COc1nsnc1-c1cccc2ccccc12)Nc1ccccc1F,>126 µM
CC(=O)OCCOCn1c(-c2ccccc2)c(Br)c(Br)c1-c1ccccc1,23 µM
CCc1c(Cc2cccc(Cc3nc(SC)n(C)c(=O)c3CC)c2)nc(SC)n(C)c1=O,>100 µM
CC(=O)OCCOCn1c(-c2ccccc2)c(N)c(C#N)c1-c1ccccc1,>300 µM
O=C(O)c1ccc(Nc2ccc3ccccc3c2O)cc1,70.07 µM
Cn1c(=O)cc(Oc2nc(Nc3ccc(C#N)cc3)nc(Nc3nc4ccc([N+](=O)[O-])cc4s3)n2)c2ccccc21,69.28 µg/mL
CCc1c(Cc2cccc(Cc3nc(SC(C)CC)[nH]c(=O)c3CC)c2)nc(SC(C)CC)[nH]c1=O,27 µM
Cc1cc(C)c(-n2c(SCC(=O)Nc3ccc(S(N)(=O)=O)cc3Br)nc3cnccc32)c(C)c1,9.7 µM
Cn1cc(C(=O)O)c(=O)c2cc(N)c(N3CCN(c4ccccn4)CC3)nc21,51.86 µM
Cn1c(=O)cc(Oc2nc(Nc3ccc(C#N)cc3)nc(Nc3nc4ccccc4s3)n2)c2ccccc21,82.93 µg/mL
Cc1cn([C@H]2C[C@H](N=[N+]=[N-])[C@@H](CO)O2)c(=O)[nH]c1=O,140 µM
COc1ccc(/C(C)=N/NC(=O)c2ccncc2)c(OC)c1,12 µM
C=Cn1cc(C(=O)O)c(=O)c2ccc(N3CCN(c4nccs4)CC3)nc21,34.61 µM
Cc1ccc(-c2c(C)c3c(c(C)c2[C@H](OC(C)(C)C)C(=O)O)N(S(C)(=O)=O)Cc2cccc(F)c2-3)cc1,17 µM
CC(C)=CCN1C(C)Cn2c(=S)[nH]c3cc(Cl)cc(c32)S1(=O)=O,23 µM
CC(=O)OCCOCn1c(-c2ccccc2)c(C#N)c([N+](=O)[O-])c1-c1ccccc1,>300 µM
Nn1cc(C(=O)O)c(=O)c2ccc(N3CCN(c4nc5ccccc5s4)CC3)nc21,23.77 µM
CC1OC(OCC2OC(Oc3c(-c4cc(O)c(O)c(O)c4)oc4cc(O)cc(O)c4c3=O)C(O)C(O)C2O)C(O)C(O)C1O,>300 µM
Cc1cn([C@H]2C[C@H](N=[N+]=[N-])[C@@H](CO)O2)c(=O)[nH]c1=O,257 µg/mL
C=Cn1cc(C(=O)O)c(=O)c2ccc(N3CCN(c4ccccn4)CC3)nc21,16.66 µM
CC1=C(C(=O)Nc2ccc(Cl)cc2C)C2=NN=C(N)C2C(=O)N1,68.6 µg/mL
COC(=O)c1ccc(NC(=O)COc2nsnc2-c2cccc3ccccc23)cc1,4.9 µM
CC1=C(C(=O)Nc2ccc(C)cc2)C2=NN=C(N)C2C(=O)N1,>100 µg/mL
Cc1ccccc1CN1C(C)C(=O)Nc2ccc(Cl)cc2S1(=O)=O,>200 µM
Cn1cc(C(=O)O)c(=O)c2cnc(N3CCN(c4nc5ccccc5s4)CC3)cc21,>297 µM
Cc1cc(-c2ccc(C#N)cc2)cc(C)c1Oc1ccnc(S(=O)(=O)CC(=O)Nc2ccc(Cl)cc2)n1,7.41 µM
Cc1cc(C)c(-n2c(SCC(=O)Nc3ccc(C)cc3Br)nc3cccnc32)c(C)c1,0.99 µM
COc1ccc([C@@H]2C[C@@H]2CSc2nc([C@@H](C)c3c(F)cccc3F)c(C)c(=O)[nH]2)cc1,>56.25 µM
Cc1cc(C)c(-n2c(SCC(=O)Nc3ccc(S(N)(=O)=O)cc3Br)nc3cccnc32)c(C)c1,22 µM
O=C1CNS(=O)(=O)c2cc(Cl)cc([N+](=O)[O-])c2N1,>200 µM
c1ccc(CO[C@@H]2[C@H](OCc3ccccc3)[C@@H]3OC[C@@H](O3)[C@H]2OCc2ccccc2)cc1,>200 µg/mL
Cn1cc(C(=O)O)c(=O)c2ccc(N3CCN(c4ccccn4)CC3)nc21,26.33 µM
Cc1cc(-c2ccc(C#N)cc2)cc(C)c1Oc1ccnc(S(=O)(=O)C(C)C(=O)Nc2ccc(C#N)cc2)n1,15.38 µM
COC(=O)c1ccc(NC(=O)CSc2nc3cnccc3n2-c2c(C)cc(C)cc2C)c(Br)c1,27 µM
CC1=C(C(=O)Nc2ccc(Br)cc2)C2=NN=C(N)C2C(=O)N1,108.2 µg/mL
COc1cc(-c2nnc(Sc3nc(Nc4ccc(C#N)cc4)nc(Oc4cc(=O)n(C)c5ccccc45)n3)o2)cc(OC)c1OC,65.13 µg/mL
CC1(C)Cc2c(Br)c(Br)c(Br)c(OCCCN3CCCCC3)c2O1,6 µM
CCOC(=O)CN(CC)S(=O)(=O)c1cc(Cl)ccc1N,>200 µM
Cc1cc(C#N)cc(C)c1Oc1nc(NC2CCN(S(N)(=O)=O)CC2)nc2ccsc12,20.35 µM
COc1c(O)cc2ccc(=O)oc2c1-c1c(O)ccc2ccc(=O)oc12,54 µM
Cc1cc(C#N)cc(C)c1Oc1nc(Nc2ccc(C#N)cc2)nc(N)c1Br,>4.585 µM
CN(C)CCOc1c(Br)c(Br)c(Br)c2c1OC(C)(C)C2,12.4 µM
CCc1c(Cc2cccc(Cc3nc(SC(C)C)[nH]c(=O)c3CC)c2)nc(SC(C)C)[nH]c1=O,36 µM
COc1ccc([C@@H]2C[C@@H]2CSc2nc([C@H](C)c3c(F)cccc3F)c(C)c(=O)[nH]2)cc1,>56.25 µM

Repeating the final 7 entries:

compound | result
CCOC(=O)CN(CC)S(=O)(=O)c1cc(Cl)ccc1N | >200 µM
Cc1cc(C#N)cc(C)c1Oc1nc(NC2CCN(S(N)(=O)=O)CC2)nc2ccsc12 | 20.35 µM
COc1c(O)cc2ccc(=O)oc2c1-c1c(O)ccc2ccc(=O)oc12 | 54 µM
Cc1cc(C#N)cc(C)c1Oc1nc(Nc2ccc(C#N)cc2)nc(N)c1Br | >4.585 µM
CN(C)CCOc1c(Br)c(Br)c(Br)c2c1OC(C)(C)C2 | 12.4 µM
CCc1c(Cc2cccc(Cc3nc(SC(C)C)[nH]c(=O)c3CC)c2)nc(SC(C)C)[nH]c1=O | 36 µM
COc1ccc([C@@H]2C[C@@H]2CSc2nc([C@H](C)c3c(F)cccc3F)c(C)c(=O)[nH]2)cc1 | >56.25 µM